Usually IC50 stands for the point on the concentration scale where inhibition reaches its midpoint.

In this experiment the target is MtuLigA (Mycobacterium tuberculosis, UniProt P9WNV1). Type of experiment: biochemical, M.tuberculosis. As to conditions: read-out: IC50 MtuLigA.

As for Doxorubicin [Compound 7], the IC50 stood at 46 ± 2.5 µM.

(Values after article PMC1316110 (Nucleic Acids Research, 2005).)
